# Experimental data from patent US5589335A, “Hybridization promotion reagents” (Amoco Corporation, priority 1994, dated 1996).
# System: 35-nucleotide oligomer pairs #855/dA112-730 and #853/dA125-854 (E. coli rRNA sequences)
# Experiment: DNA:DNA oligomer hybrid melting
smiles,measurement,setting,value
"N=C(N)N [GuSCN, Guanidinium thiocyanate]",difference in the Td's of the two pairs of oligomers,37%-GC vs 66%-GC,15 °C
same,Dissociation Temperature of DNA:DNA hybrid,GC-content 37%,39 °C
same,Dissociation Temperature of DNA:DNA hybrid,GC-content 66%,54 °C and 53 °C

# Several values for one entry are separate records, joined by “and”; a condition that tells them apart may be missing. Equal entries are not always repeated.
